Laboratory results from PMC3662775, “Transient Oligomerization of the SARS-CoV N Protein – Implication for Virus Ribonucleoprotein Packaging” (PLoS ONE, 2013).

Target: the molecule itself
Experiment: cross-linking + SEC

B1: SARS-CoV N protein C-terminal structural domain (CTD, res. 248–365), wild type (domain or fragment)
chain: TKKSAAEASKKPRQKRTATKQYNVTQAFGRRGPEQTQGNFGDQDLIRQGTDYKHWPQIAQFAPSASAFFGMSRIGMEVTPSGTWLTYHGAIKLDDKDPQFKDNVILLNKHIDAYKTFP
In the case of B1, the “stoichiometry N” value is reported as 2.
